From patent US9988424 (DUKE UNIVERSITY, dated 2018)

Experiments:
[1] = target: J08 A.92RW020V1V2 (HIV-1); assay: ELISA
[2] = target: T1, gp70 B.HXB2/BALV1V2 (murine leukemia virus; HIV-1); assay: ELISA
T1 chain: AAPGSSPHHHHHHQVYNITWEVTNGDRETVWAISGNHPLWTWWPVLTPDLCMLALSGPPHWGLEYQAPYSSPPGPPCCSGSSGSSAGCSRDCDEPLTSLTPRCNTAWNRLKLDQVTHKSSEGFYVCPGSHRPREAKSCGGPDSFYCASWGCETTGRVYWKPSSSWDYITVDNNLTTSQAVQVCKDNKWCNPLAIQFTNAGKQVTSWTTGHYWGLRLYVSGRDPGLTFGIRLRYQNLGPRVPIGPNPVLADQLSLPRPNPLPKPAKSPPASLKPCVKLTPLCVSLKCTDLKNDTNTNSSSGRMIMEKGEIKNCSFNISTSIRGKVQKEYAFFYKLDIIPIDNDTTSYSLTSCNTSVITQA

[3] = target: J08 C.ZM109.V1V2 (HIV-1); assay: ELISA
[4] = target: T2, J08 B.HXB2/BALV1V2 (HIV-1); assay: ELISA
T2 construct: also called J08 B.HXB/BAL V1V2
T2 chain: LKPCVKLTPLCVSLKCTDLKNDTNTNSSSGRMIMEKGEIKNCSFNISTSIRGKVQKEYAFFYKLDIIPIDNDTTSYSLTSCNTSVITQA

[5] = target: T3, B.62357 gp140C; assay: ELISA, OD405 at 10 ug/ml
T3 construct: also called B.62357 140C

[6] = target: T4, G.con gp140CF; assay: ELISA, OD405 at 10 ug/ml
T4 chain: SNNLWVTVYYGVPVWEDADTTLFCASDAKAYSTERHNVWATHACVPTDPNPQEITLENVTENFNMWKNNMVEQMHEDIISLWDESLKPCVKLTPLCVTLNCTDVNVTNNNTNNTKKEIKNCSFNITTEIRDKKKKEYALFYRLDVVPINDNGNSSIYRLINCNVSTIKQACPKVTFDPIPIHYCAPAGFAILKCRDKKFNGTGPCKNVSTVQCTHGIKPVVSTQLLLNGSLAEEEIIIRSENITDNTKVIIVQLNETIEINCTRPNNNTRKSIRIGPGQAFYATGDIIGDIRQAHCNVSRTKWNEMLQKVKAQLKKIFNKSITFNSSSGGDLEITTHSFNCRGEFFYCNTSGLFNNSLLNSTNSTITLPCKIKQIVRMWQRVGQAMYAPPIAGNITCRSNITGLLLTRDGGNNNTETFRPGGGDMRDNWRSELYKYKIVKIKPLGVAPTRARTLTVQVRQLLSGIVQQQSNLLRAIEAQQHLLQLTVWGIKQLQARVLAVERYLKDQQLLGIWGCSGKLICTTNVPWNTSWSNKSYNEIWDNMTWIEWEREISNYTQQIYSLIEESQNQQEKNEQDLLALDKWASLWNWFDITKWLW

[7] = target: B.040 gp140C; assay: ELISA, OD405 at 10 ug/ml
[8] = target: T5, AE.con gp140CF; assay: ELISA, OD405 at 10 ug/ml
T5 chain: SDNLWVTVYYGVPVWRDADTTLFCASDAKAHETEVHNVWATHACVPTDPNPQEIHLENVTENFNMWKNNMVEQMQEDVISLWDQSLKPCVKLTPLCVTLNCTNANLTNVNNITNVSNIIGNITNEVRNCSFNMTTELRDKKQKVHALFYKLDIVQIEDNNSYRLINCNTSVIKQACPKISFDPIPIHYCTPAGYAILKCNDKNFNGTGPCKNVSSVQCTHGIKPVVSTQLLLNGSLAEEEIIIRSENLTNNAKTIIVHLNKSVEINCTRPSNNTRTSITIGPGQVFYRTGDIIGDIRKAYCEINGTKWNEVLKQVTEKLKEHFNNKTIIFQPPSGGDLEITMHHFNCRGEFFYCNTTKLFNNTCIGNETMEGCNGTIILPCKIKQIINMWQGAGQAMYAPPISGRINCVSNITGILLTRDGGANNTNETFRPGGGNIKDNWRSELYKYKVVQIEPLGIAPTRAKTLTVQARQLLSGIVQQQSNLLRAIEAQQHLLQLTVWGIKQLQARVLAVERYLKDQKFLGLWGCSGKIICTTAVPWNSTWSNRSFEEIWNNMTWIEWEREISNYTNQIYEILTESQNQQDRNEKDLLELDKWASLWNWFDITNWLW

[9] = target: B.con gp140CF; assay: ELISA, OD405 at 10 ug/ml
[10] = target: T6, C.1086 gp140; assay: ELISA, OD405 at 10 ug/ml
T6 construct: also called C.1086gp140C
T6 chain: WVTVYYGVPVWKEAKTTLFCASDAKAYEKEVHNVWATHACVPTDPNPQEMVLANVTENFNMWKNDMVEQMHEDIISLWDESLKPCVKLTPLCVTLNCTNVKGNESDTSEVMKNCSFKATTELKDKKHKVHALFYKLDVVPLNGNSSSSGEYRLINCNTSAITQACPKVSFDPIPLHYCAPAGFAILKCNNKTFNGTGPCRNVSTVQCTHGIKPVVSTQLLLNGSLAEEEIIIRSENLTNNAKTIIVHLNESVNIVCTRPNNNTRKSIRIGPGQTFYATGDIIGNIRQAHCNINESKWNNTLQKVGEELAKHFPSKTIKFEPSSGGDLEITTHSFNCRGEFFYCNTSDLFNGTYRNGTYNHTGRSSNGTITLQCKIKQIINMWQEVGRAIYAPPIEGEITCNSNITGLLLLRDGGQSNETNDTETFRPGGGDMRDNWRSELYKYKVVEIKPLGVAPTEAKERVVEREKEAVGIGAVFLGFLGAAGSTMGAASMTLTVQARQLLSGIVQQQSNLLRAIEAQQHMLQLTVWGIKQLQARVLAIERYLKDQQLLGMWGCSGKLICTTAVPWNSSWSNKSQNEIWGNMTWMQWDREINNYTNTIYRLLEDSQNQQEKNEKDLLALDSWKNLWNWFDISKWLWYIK

B1: CH58 (antibody, V domains shown)
VH: EVQLVQSGAEVKKPGESLKISCKGSGYRFTSYWIVWVRQMPGKGLEWMGIIYPGDFDTKYSPSFQGQVTISADKSISTAYLQWSSLKASDTAMYYCARLGGRYYHDSSGYYYLDYWGQGTLVTVSS
VL: NFMLTQPHSVSESPGKTVTISCTRSSGSVASDYVQWYQQRPGSAPTTVVYEDNQRPSGVPDRFSGSIDSSSNSASLTISGLKTEDEADYYCQSYDNSSWVFGGGTKLTVL
EC50 [1]: 0.22 nM
EC50 [2]: > 667 nM
binding result [3]: no binding (tested: 667 nM)
EC50 [4]: > 667 nM
binding result [5]: no binding (tested: 10 ug/ml)
binding result [6]: no binding (tested: 10 ug/ml)
binding result [7]: no binding (tested: 10 ug/ml)
binding result [8]: binds
binding result [9]: no binding (tested: 10 ug/ml)
binding result [10]: binds
